{
  "source": "paper PMC4936896",
  "about": "“Primate TRIM5 proteins form hexagonal nets on HIV-1 capsids” (eLife, 2016)",
  "target": "the molecule itself",
  "test": "SEC; final gel filtration step, HiLoad 16/600 Superdex 200 in 20 mM CHES, 100 nM ZnCl2, 1 mM TCEP, pH 10.0, 4°C; oligomer judged from retention time",
  "data": [
    {"protein": "HIV-1-restricting human TRIM5α_(R332P) (natural protein, UniProt Q9C035 1-493, looked up, also called TRIM5α_(hu,R332P)) MASGILVNVKEEVTCPICLELLTQPLSLDCGHSFCQACLTANHKKSMLDKGESSCPVCRISYQPENIRPNRHVANIVEKLREVKLSPEGQKVDHCARHGEKLLLFCQEDGKVICWLCERSQEHRGHHTFLTEEVAREYQVKLQAALEMLRQKQQEAEELEADIREEKASWKTQIQYDKTNVLADFEQLRDILDWEESNELQNLEKEEEDILKSLTNSETEMVQQTQSLRELISDLEHRLQGSVMELLQGVDGVIKRTENVTLKKPETFPKNQRRVFRAPDLKGMLEVFRELTDVRRYWVDVTVAPNNISCAVISEDKRQVSSPKPQIIYGAPGTRYQTFVNFNYCTGILGSQSITSGKHYWEVDVSKKTAWILGVCAGFQPDAMCNIEKNENYQPKYGYWVIGLEEGVKCSAFQDSSFHTPSVPFIVPLSVIICPDRVGVFLDYEACTVSFFNITNHGFLIYKFSHCSFSQPVFPYLNPRKCGVPMTLCSPSS", "values": [
      {"measurement": "stoichiometry N", "value": 2}
    ]}
  ]
}
